The record followed here is patent US20220267415A1 (University of Texas, published 2022).

Where two headings read alike, the source gives them in different places.

Common to all, as to experiment: cell-based or functional assay
The target of experiment [1] is T1, P.1 Gamma variant spike protein on recombinant USA-WA1/2020 virus (SARS-CoV-2).
In experiment [2] the target is AY.4.2 (Delta subvariant) spike protein on recombinant USA-WA1/2020 virus (SARS-CoV-2).
In experiment [3] the target is B.1.617.2 Delta variant spike protein on recombinant USA-WA1/2020 virus (SARS-CoV-2).
The target of experiment [4] is T1, P.1 Gamma variant spike protein on …. The source holds these as a separate data set.

B1: anti-SARS-CoV2-14 IgG (full lambda light chain) (antibody, V domains shown)
VH: EVQLQQSGPGLVKPSQTLSLTCAISGDSVSSNSAAWNWIRQSPSRGLEWLGRTYYRSKWYNDYAVSVKSRITINPDTSKNQFSLQLNSVTPEDTAVYYCAREEQQLVHDYYYYGMDVWGQGTMVTVSS
VL: QAVVTQPASVSGSPGQSITISCTGTSSDIGAYNYISWYQQHPGKAPKLIIYEVSNRPSGISYRFSGSKSGNTASLTISGLQAEDEANYYCSSYAGSISFGGGTKVTVL
Take B1: the “Neutralization EC50 (PRNT)” value in experiment [1] was 12.6 µg/mL; in experiment [2], 0.44 µg/mL; in experiment [3], 0.57 µg/mL; in experiment [4] it was 13 µg/mL.
